Test results: article PMC3351407

Tests used:
[1] = target: HIV-1 Env Q461.e2 (HIV-1 (clade A))
[2] = target: HIV-1 clade C Env 4.J2 (HIV-1 (clade C))
[3] = target: HIV-1 A/G recombinant Env CRF02_AG-235 (HIV-1 (A/G recombinant))
[4] = target: HIV-1 Env TND_L669 (HIV-1 (clade B))
[5] = target: HIV-1 clade C Env 2-3.J7 (HIV-1 (clade C))
[6] = target: HIV-1 clade A Env Q259ENVd2.17 (HIV-1 (clade A))
[7] = target: HIV-1 clade C Env 4.J22 (HIV-1 (clade C))

Q: “soluble CD4 (from UniProt P01730 26-396) (receptor)” was tested. Which IC50 of neutralisation of Env-pseudotyped virus by sCD4 in TZM-bl cells (luciferase); control Env tested in parallel [1] did it give?
A: Its IC50 of neutralisation of Env-pseudotyped virus by sCD4 in TZM-bl cells (luciferase); control Env tested in parallel is over 25 µg/mL.

Q: What about the IC50 of neutralisation of Env-pseudotyped virus by sCD4 in TZM-bl cells (luciferase); sCD4 interferes with the Env-CD4 interaction [2] of the same substance?
A: Its IC50 of neutralisation of Env-pseudotyped virus by sCD4 in TZM-bl cells (luciferase); sCD4 interferes with the Env-CD4 interaction is 0.625 µg/mL.

Q: And the IC50 of neutralisation of Env-pseudotyped virus by sCD4 in TZM-bl cells (luciferase); sCD4 interferes with the Env-CD4 interaction [3]?
A: Its IC50 of neutralisation of Env-pseudotyped virus by sCD4 in TZM-bl cells (luciferase); sCD4 interferes with the Env-CD4 interaction is over 25 µg/mL.

Q: What about the IC50 of neutralisation of Env-pseudotyped virus by sCD4 in TZM-bl cells (luciferase); control Env tested in parallel [4] of the same substance?
A: The IC50 of neutralisation of Env-pseudotyped virus by sCD4 in TZM-bl cells (luciferase); control Env tested in parallel was 10 µg/mL.

Q: And the IC50 of neutralisation of Env-pseudotyped virus by sCD4 in TZM-bl cells (luciferase); sCD4 interferes with the Env-CD4 interaction [5]?
A: Its IC50 of neutralisation of Env-pseudotyped virus by sCD4 in TZM-bl cells (luciferase); sCD4 interferes with the Env-CD4 interaction is over 25 µg/mL.

Q: And the IC50 of neutralisation of Env-pseudotyped virus by sCD4 in TZM-bl cells (luciferase); sCD4 interferes with the Env-CD4 interaction [6]?
A: The IC50 of neutralisation of Env-pseudotyped virus by sCD4 in TZM-bl cells (luciferase); sCD4 interferes with the Env-CD4 interaction was over 25 µg/mL.

Q: And the neutralisation of Env-pseudotyped virus by sCD4 in TZM-bl cells [7]?
A: The neutralisation of Env-pseudotyped virus by sCD4 in TZM-bl cells was over 25 µg/mL.
